Results of unrelated studies side by side (data: NIAID ChemDB).

Shared fields: tests in culture; organism: Aspergillus niger

Lines come from different laboratories, so protocols vary. An empty or dashed field is not shown. MIC50, MIC90 and the like: level of inhibition, or share of isolates inhibited.

compound | setting | read by | strain | endpoint | result
O=C(CSc1nnc(-c2ccc3ncccc3c2)o1)Nc1nc2ccc([N+](=O)[O-])cc2s1 | - | agar | - | MIC | 25 µg/mL
N#Cc1c(-c2ccc(Cl)cc2)cc(-c2cc3cc(F)ccc3oc2=O)nc1NS(=O)(=O)c1ccccc1 | - | turbidity | MTCC 282 | MIC | 1000 µg/mL
CC(=O)[C@]1(O)Cc2c(O)c3c(c(O)c2[C@@H](O[C@H]2C[C@H](N)[C@H](O)[C@H](C)O2)C1)C(=O)c1ccccc1C3=O | - | - | NCPF 7162 | MIC | 14.2 µM
N#Cc1ccc(Nc2nc(Oc3ncnc4ccccc34)nc(N3CCN(c4ccccc4)CC3)n2)cc1C(F)(F)F | - | - | MTCC 282 | MIC | >100 µg/mL
Nc1ccc(S(=O)(=O)N(n2sc3ccccc3c2=O)S(=O)(=O)c2ccc(N)cc2)cc1 | - | - | ATCC 6275 | MIC100 | >100 µg/mL
N#Cc1c(-c2ccc(F)cc2)cc(-c2cc3cc(F)ccc3oc2=O)nc1NS(=O)(=O)c1ccccc1 | - | turbidity | MTCC 282 | MIC | 50 µg/mL
Nc1[nH]c(=O)nc2oc3c(Br)cc(Br)cc3c(=O)c12 | - | broth dilution | MTCC 282 | MIC100 | 1000 µg/mL
Clc1ccc(CO/N=C2/c3ccc(Cl)cc3OCC2n2cnnc2)cc1 | - | - | ATCC 16401 | MIC | 64 µg/mL
Cc1ccc(C2CC(Cc3ccc(CC(C)C)cc3)=Cc3[nH][nH]c(=O)c32)cc1 | - | agar diffusion | - | MIC | 100 µg/mL
O=C(c1ccc(Cl)cc1)N1CCC(n2cc(-c3nc(-c4ccccc4)n[nH]3)nn2)CC1 | - | agar | - | MIC | >200 µg/mL
CC(=O)Nc1ccc(S(=O)(=O)N(n2sc3ccccc3c2=O)S(=O)(=O)c2ccc(NC(C)=O)cc2)cc1 | - | - | ATCC 6275 | MIC100 | >100 µg/mL
[Cl][Cu][Cl].c1ccc(CSc2cccc3cccnc23)nc1 | - | broth dilution / visual reading | - | MIC | 154 µM
COc1cc(/C=C/C(C)=O)ccc1O | - | broth dilution | MTCC 218 | MFC | 880 µM
CCC(C)CC(C)CCCCCCCCC(=O)N[C@H]1C[C@@H](O)[C@H](NCCN)NC(=O)[C@@H]2[C@@H](O)CCN2C(=O)[C@H]([C@H](O)CCN)NC(=O)[C@H]([C@H](O)[C@@H](O)c2ccc(O)cc2)NC(=O)[C@@H]2C[C@@H](O)CN2C(=O)[C@H]([C@@H](C)O)NC1=O | - | broth dilution | - | MEC | 0.03 µg/mL
O=C(CSc1nnc(-c2ccc3ncccc3c2)o1)Nc1ccc(I)cc1 | - | agar | - | MIC | 100 µg/mL
C/C=C/[C@@H]1OC(=O)C=C[C@@H]1O | - | - | - | MIC | 739 µg/mL
Cc1ccc2c(=O)c3c(N)[nH]c(=S)nc3oc2c1 | - | broth dilution | MTCC 282 | MIC100 | 500 µg/mL
N#Cc1c(-c2ccccc2)cc(-c2cc3cc(F)ccc3oc2=O)nc1NS(=O)(=O)c1ccccc1 | - | turbidity | MTCC 282 | MIC | 500 µg/mL
CCC1/C=C/C=C/C=C/C=C/C(OC2OC(C)C(O)C(N)C2O)CC2OC(O)(CC(O)CC(O)C/C=C/C(=O)OC1C)CC(O)C2C(=O)O | - | broth dilution | CGMCC 3.6478 | MIC100 | 2.83 µg/mL
Clc1ccc(CO/N=C2/c3ccccc3OCC2n2cnnc2)c(Cl)c1 | - | - | ATCC 16401 | MFC | 64 µg/mL
O=C(c1ccccc1)N1CCC(n2cc(-c3nc(-c4ccccc4)n[nH]3)nn2)CC1 | - | agar | - | MIC | >200 µg/mL
N#Cc1c(-c2cccc(F)c2)cc(-c2cc3cc(F)ccc3oc2=O)nc1NS(=O)(=O)c1ccccc1 | - | turbidity | MTCC 282 | MIC | 500 µg/mL
Cc1ccc2nc(NC(=O)CSc3nnc(-c4ccc5ncccc5c4)o3)sc2c1 | - | agar | - | MIC | 100 µg/mL
O=c1[nH][nH]c2c1C(c1ccc(Br)cc1)CC(Cc1ccc3ccccc3c1)=C2 | - | agar diffusion | - | MIC | 12.5 µg/mL
O=C(NN1C(=O)/C(=C\c2cccc([N+](=O)[O-])c2)SC1c1ccccc1)c1ccc(-c2ccccc2)cc1 | - | - | MTCC 8189 | MIC | 1.56 µg/mL
CCOC(=O)C1/C(=N/Nc2ccc([N+](=O)[O-])cc2[N+](=O)[O-])C=C(c2ccc3ccccc3c2)CC1c1ccc(OC)cc1 | - | - | Clinical isolates | MIC | 12.5 µg/mL
CC(=O)Nc1ccc(S(=O)(=O)Nn2sc3ccccc3c2=O)cc1 | - | - | ATCC 6275 | MIC100 | >100 µg/mL
Clc1ccc(CO/N=C2\c3ccccc3OCC2n2cncn2)cc1Cl | - | - | ATCC 16401 | MIC | 1 µg/mL
CC1/C=C/C=C/C=C/C=C/C(O[C@@H]2O[C@H](C)[C@@H](O)[C@H](N)[C@@H]2O)CC2OC(O)(CC(O)CC(O)C/C=C/C(=O)OC1C)CC(O)C2C(=O)O | - | broth dilution | CGMCC 3.6478 | MIC100 | 5.63 µg/mL
CC[C@@]1(O)C[C@H](O[C@H]2C[C@H](N(C)C)[C@H](O[C@H]3C[C@H](O)[C@H](O[C@H]4CCC(=O)[C@H](C)O4)[C@H](C)O3)[C@H](C)O2)c2c(cc3c(c2O)C(=O)c2c(O)cccc2C3=O)[C@H]1C(=O)OC | - | - | NCPF 7162 | MIC | >100 µM
CS(=O)(=O)N1CCC(n2cc(-c3nc(-c4ccc(Cl)cc4)n[nH]3)nn2)CC1 | - | agar | - | MIC | 30 µg/mL
O=c1[nH][nH]c2c1C(c1ccc(F)cc1)CC(Cc1ccc3ccccc3c1)=C2 | - | agar diffusion | - | MIC | 12.5 µg/mL
CC(=O)OC12CCC(C(=O)C1)C1C(=O)N(CCCN3CCN(c4ccccn4)CC3)C(=O)C12 | - | broth dilution | DSM 1988 | MIC | >100 µM
O=C(NN1C(=O)/C(=C\c2cccc([N+](=O)[O-])c2)SC1c1cccc(Br)c1)c1ccc(-c2ccccc2)cc1 | - | - | MTCC 8189 | MIC | 3.12 µg/mL
CCC(C)CC(C)CCCCCCCCC(=O)N[C@H]1C[C@@H](O)[C@H](NCCN)NC(=O)[C@@H]2[C@@H](O)CCN2C(=O)[C@H]([C@H](O)CCN)NC(=O)[C@H]([C@H](O)[C@@H](O)c2ccc(O)cc2)NC(=O)[C@@H]2C[C@@H](O)CN2C(=O)[C@H]([C@@H](C)O)NC1=O | - | broth dilution | 27 | MIC | 64 µg/mL
O=C1C(Cl)C2(C(=O)Nc3c(Br)cc(Br)cc32)N1c1ccc([N+](=O)[O-])cc1 | - | - | MTCC 343 | MIC100 | 23 µg/mL
O=C(Cc1ccccc1F)N/N=C/c1cc([N+](=O)[O-])ccc1Cl | - | MTT | - | MIC | >150 µM
Clc1ccccc1C(c1ccccc1)(c1ccccc1)n1ccnc1 | - | - | MTCC 8189 | MIC | 0.3 µg/mL
C=C1C(=O)O[C@H]2[C@H]1[C@@H](O)C[C@]1(C)[C@@H]2[C@@H](CO)CC[C@H]1O | - | - | ATCC 6275 | MIC | 0.25 µg/mL
COc1ccc(NC(=O)CSc2nnc(-c3ccc4ncccc4c3)o2)cc1 | - | agar | - | MIC | 100 µg/mL
CC(=O)N1CCN(c2ccc(OC[C@H]3CO[C@](Cn4ccnc4)(c4ccc(Cl)cc4Cl)O3)cc2)CC1 | - | - | Species complex | MIC50 | 1 µg/mL
C[C@H]1[C@H](O)[C@@H](C)/C=C/C=C/C=C/C=C/C=C/C=C/C=C/[C@H](O[C@@H]2O[C@H](C)[C@@H](O)[C@H](N)[C@@H]2O)C[C@@H]2O[C@](O)(C[C@@H](O)C[C@@H](O)CC[C@H](O)[C@@H](O)C[C@@H](O)CC(=O)O[C@H]1C)C[C@H](O)[C@H]2C(=O)O | 48 h | broth dilution | NBRC 105649 | MIC | 1 µg/mL
CC(=O)OC12CCC(C(=O)C1)C1C(=O)NC(=O)C12 | - | broth dilution | DSM 1988 | MIC | >100 µM
Fc1ccccc1CO/N=C1\c2ccccc2OCC1n1cncn1 | - | - | ATCC 16401 | MFC | 32 µg/mL
Nc1nc(N)c2c(=O)c3cc(Br)cc(Br)c3oc2n1 | - | broth dilution | MTCC 282 | MIC100 | >1000 µg/mL
CC(=O)OC12CCC(C(=O)C1)C1C(=O)N(CCCN3CCN(c4ncccn4)CC3)C(=O)C12 | - | broth dilution | DSM 1988 | MIC | >100 µM
COc1ccc(Br)cc1/C=N/NC(=O)Cc1cc2ccccc2cc1O | - | MTT | - | MIC | >150 µM
CC(=O)OC12CCC(C(=O)C1)C1C(=O)N(CCCCN3CCN(c4ccccc4O)CC3)C(=O)C12 | - | broth dilution | DSM 1988 | MIC | >100 µM
O=C(CSc1nnc(-c2ccc3ncccc3c2)o1)Nc1nc2ccc(Br)cc2s1 | - | agar | - | MIC | 25 µg/mL
CCOC(=O)C1/C(=N/Nc2ccc([N+](=O)[O-])cc2[N+](=O)[O-])C=C(c2ccc3ccccc3c2)CC1c1ccc([N+](=O)[O-])cc1 | - | - | Clinical isolates | MIC | 50 µg/mL
CS(=O)(=O)N1CCC(n2cc(-c3nc(-c4ccccc4)n[nH]3)nn2)CC1 | - | agar | - | MIC | 40 µg/mL
CS(C)=O | - | - | MTCC 282 | MIC | >100 µg/mL
O=C1C(Cl)C2(C(=O)Nc3ccccc32)N1c1ccccc1[N+](=O)[O-] | - | - | MTCC 343 | MIC100 | 17 µg/mL
Clc1ccc2c(c1)OCC(n1cnnc1)/C2=N\OCc1ccccc1 | - | - | ATCC 16401 | MFC | >64 µg/mL
Cc1ccccc1N1C(=O)C(Cl)C12C(=O)Nc1c(Br)cc(Br)cc12 | - | - | MTCC 343 | MIC100 | 17 µg/mL
CCOC(=O)C1/C(=N/Nc2ccc([N+](=O)[O-])cc2[N+](=O)[O-])C=C(c2ccc3ccccc3c2)CC1c1cccc(Cl)c1 | - | - | Clinical isolates | MIC | 6.25 µg/mL
CN1CCC(n2cc(-c3nc(-c4ccc(Cl)cc4)n[nH]3)nn2)CC1 | - | agar | - | MIC | 40 µg/mL
O=C1C(Cl)C2(C(=O)Nc3ccccc32)N1c1ccc([N+](=O)[O-])cc1 | - | - | MTCC 343 | MIC100 | 24 µg/mL
C[C@H]1[C@H](O)[C@@H](C)/C=C/C=C/C=C/C=C/C=C/C=C/C=C/[C@H](O[C@@H]2O[C@H](C)[C@@H](O)[C@H](N)[C@@H]2O)C[C@@H]2O[C@](O)(C[C@@H](O)C[C@@H](O)CC[C@H](O)[C@@H](O)C[C@@H](O)CC(=O)O[C@H]1C)C[C@H](O)[C@H]2C(=O)O | - | agar diffusion | As1 | MIC | 45 µg/mL
C=C(C(=O)O[C@H]1CC(C)=CCC/C(CO)=C/[C@H]2OC(=O)C(=C)[C@H]12)C(O)COC(C)=O | - | - | ATCC 6275 | MFC | 0.25 µg/mL
O=C1C(Cl)C2(C(=O)Nc3c(Br)cc(Br)cc32)N1c1ccccc1 | - | - | MTCC 343 | MIC100 | 14 µg/mL
CCOC(=O)C1/C(=N/Nc2ccc([N+](=O)[O-])cc2[N+](=O)[O-])C=C(c2ccc3ccccc3c2)CC1c1ccccc1 | - | - | Clinical isolates | MIC | 100 µg/mL
O=C(NN1C(=O)/C(=C\c2cccc(Br)c2)SC1c1ccccc1)c1ccc(-c2ccccc2)cc1 | - | - | MTCC 8189 | MIC | 6.25 µg/mL
COc1ccccc1N1CCN(CCCN2C(=O)C3C4CCC(OC(C)=O)(CC4=O)C3C2=O)CC1 | - | broth dilution | DSM 1988 | MIC | >100 µM
c1ccc(CO/N=C2\c3ccccc3OCC2n2cnnc2)cc1 | - | - | ATCC 16401 | MFC | >64 µg/mL
C=C(C(=O)O[C@H]1C[C@]2(C)[C@H]([C@@H](CO)CC[C@H]2O)[C@@H](O)[C@@H]1C(=C)C(=O)OC)C(O)COC(C)=O | - | - | ATCC 6275 | MFC | 2 µg/mL

A second listing of 7 rows from above:

| compound | setting | read by | strain | endpoint | result |
|---|---|---|---|---|---|
| CC(=O)OC12CCC(C(=O)C1)C1C(=O)N(CCCN3CCN(c4ccccn4)CC3)C(=O)C12 | - | broth dilution | DSM 1988 | MIC | >100 µM |
| CCOC(=O)C1/C(=N/Nc2ccc([N+](=O)[O-])cc2[N+](=O)[O-])C=C(c2ccc3ccccc3c2)CC1c1cccc(Cl)c1 | - | - | Clinical isolates | MIC | 6.25 µg/mL |
| O=C1C(Cl)C2(C(=O)Nc3ccccc32)N1c1ccc([N+](=O)[O-])cc1 | - | - | MTCC 343 | MIC100 | 24 µg/mL |
| N#Cc1c(-c2ccc(F)cc2)cc(-c2cc3cc(F)ccc3oc2=O)nc1NS(=O)(=O)c1ccccc1 | - | turbidity | MTCC 282 | MIC | 50 µg/mL |
| Clc1ccc(CO/N=C2/c3ccc(Cl)cc3OCC2n2cnnc2)cc1 | - | - | ATCC 16401 | MIC | 64 µg/mL |
| O=C(CSc1nnc(-c2ccc3ncccc3c2)o1)Nc1nc2ccc([N+](=O)[O-])cc2s1 | - | agar | - | MIC | 25 µg/mL |
| N#Cc1c(-c2ccc(Cl)cc2)cc(-c2cc3cc(F)ccc3oc2=O)nc1NS(=O)(=O)c1ccccc1 | - | turbidity | MTCC 282 | MIC | 1000 µg/mL |